Pooled drug test results. Numbers come from NIAID ChemDB, via PubChem.

All rows: growth or infection tests; organism: HIV-1; cells: H9; endpoint: EC50

Rows are shuffled and stem from different studies. Blank or dashed fields: not listed here. ECn: concentration that inhibits the pathogen or its effect by n%. a–b is a range or a potency band.

smiles | strain or isolate | read by | setting | value
C[C@@]12CCC[C@@](C)(C(=O)O)C1CCC13C[C@@H](CO)[C@@H](CCC12)C3 | IIIB | p24 |  | >100 µg/mL
Cc1cc2c(c3oc(=O)ccc13)[C@@H](OC(=O)C13CCC(C)(C(=O)O1)C3(C)C)[C@@H](OC(=O)C13CCC(C)(C(=O)O1)C3(C)C)C(C)(C)O2 | IIIB | p24 |  | 0.006 µM
COc1c2c(cc3c1-c1c(cc4c(c1OC)OCO4)C[C@H](C)[C@H](C)C3)OCO2 | IIIB | p24 |  | 1.2 µg/mL
CCCCCCCCCCCCCCCCCCCCCCOCC(C)(COCCCCCCCCCCCCCCCCCCCCCC)CO[C@]1(C(=O)O)C[C@H](OS(=O)(=O)O)[C@@H](NC(C)=O)[C@H]([C@H](OS(=O)(=O)O)[C@@H](COS(=O)(=O)O)OS(=O)(=O)O)O1 | IIIB | p24 |  | <10 µg/mL
Cc1c(Cl)c(=O)oc2c3c(ccc12)OC(C)(C)[C@H](OC(=O)C12CCC(C)(C(=O)O1)C2(C)C)[C@@H]3OC(=O)C12CCC(C)(C(=O)O1)C2(C)C | IIIB | p24 |  | 0.00075 µM
O=S(=O)(Nc1cccc2ccccc12)c1ccc(F)cc1F | NL4-3 | p24 / ELISA | pseudotyped | >30 µM
COc1ccc(-c2c(C)nc3c(N4CC[C@@H](NC(=O)c5ccccc5)C4)cc(C)nn23)cc1OC |  | p24 |  | <1 µM
Cn1ccnc1S(=O)(=O)Nc1cccc(C(c2c(O)cc(C(CC3CC3)CC3CC3)oc2=O)C2CC2)c1 | IIIB | p24 |  | 1–3 µM
CC1(C)CC=C(c2cn(-c3nccc(C(=O)NC4CCC(N5CC6CCC(C5)O6)CC4)n3)c3ccc(F)c([C@H](OC(C)(C)C)C(=O)O)c23)CC1 | IIIB | luminescence |  | 0.0023 µM
COc1cc(C[C@H]2C(=O)OC[C@@H]2Cc2ccc(OC)c(OC)c2)ccc1O | IIIB | RT activity |  | <0.05 µM
COc1cc2ccc3c(c2oc1=O)[C@@H](OC(=O)C12CCC(C)(C(=O)O1)C2(C)C)[C@@H](OC(=O)C12CCC(C)(C(=O)O1)C2(C)C)C(C)(C)O3 | IIIB | p24 |  | 0.01043 µM
COc1ccc(-n2ncc3c(N4CC[C@@H](NC(C)=O)C4)nc(C)nc32)cc1OC |  | p24 |  | >100 µM
CCCCCCCCCCCCCC=O | IIIB | RT activity |  | <10 µg/mL
NC(=O)NO |  | p24 |  | <200 µM
CC(=O)OCc1cc2ccc3c(c2oc1=O)[C@@H](OC(=O)[C@@]12CC[C@@](C)(C(=O)O1)C2(C)C)[C@@H](OC(=O)[C@@]12CC[C@@](C)(C(=O)O1)C2(C)C)C(C)(C)O3 | IIIB | p24 |  | 0.06767 µM
O=S(=O)(Nc1cccc2cccnc12)c1ccc(Cl)cc1 | NL4-3 | p24 / ELISA | pseudotyped | >50 µM
C=C(CC[C@@H](C)[C@H]1CC=C2C3=C([C@@H](O)[C@H](OC(C)=O)[C@@]21C)[C@@]1(C)C[C@@H](OC(=O)CCC(=O)O)[C@H](O)C(C)(C)[C@@H]1CC3)C(C)C |  | antigen |  | <6 µM
CC(=O)N[C@@H]1CCN(c2cc(C)nn3c(-c4cccs4)c(C)nc23)C1 |  | p24 |  | 0.3 µM
Nc1nccc2c1ncn2[C@@H]1C=C(CO)[C@@H](O)[C@H]1O | MN | syncytia |  | 0.001 µM
Cc1cn([C@H]2C[C@H](F)[C@@H](CO)O2)c(=O)[nH]c1=O | IIIB | p24 |  | 0.003 µM
CC(=O)Nc1cccc(-c2c(C)nc3c(N4CC[C@@H](NC(C)=O)C4)cc(Cl)nn23)c1 |  | p24 |  | >100 µM
Cc1cc(=O)oc2c3c(ccc12)S[C@H](C)[C@@H](OC(=O)[C@@]12CC[C@@](C)(C(=O)O1)C2(C)C)[C@H]3OC(=O)[C@@]12CC[C@@](C)(C(=O)O1)C2(C)C | IIIB | p24 / antigen |  | >100 µg/mL
COc1cc2c(c3oc(=O)c(C)c(C)c13)[C@@H](OC(=O)C13CCC(C)(C(=O)O1)C3(C)C)[C@@H](OC(=O)C13CCC(C)(C(=O)O1)C3(C)C)C(C)(C)O2 | IIIB | p24 |  | 1.95 µM
COc1ccc(-c2cnc3c(N4CC[C@@H](NC(C)=O)C4)cc(C)nn23)cc1OC |  | p24 |  | 0.9 µM
O=S(=O)(Nc1cccc2cccnc12)c1ccc(F)cc1 | NL4-3 | p24 / ELISA | pseudotyped | 0.23 µM
CN1N=C(N)c2cn([C@@H]3O[C@H](COP(=O)(O)O)[C@@H](O)[C@H]3O)c3ncnc1c23 | IIIB | p24 |  | 0.02 µM
CC(=O)OC[C@]1(O)CC23CCC4[C@@](C)(CCC[C@@]4(C)C=O)C2CC[C@H]1C3 | IIIB | p24 |  | >100 µg/mL
COc1cc2c(c(OC)c1OC)-c1c(cc(OC)c(OC)c1OC)C[C@](C)(O)[C@@H](C)C2 | IIIB | p24 |  | >9 µg/mL
CC1=CCC[C@H]2[C@](C)(Cc3cc(O)ccc3O)[C@@H](C)CC[C@]12C | IIIB | p24 |  | <0.1 µg/mL
COc1cc2c(c(OC)c1OC)-c1c(cc(OC)c(OC)c1OC)C[C@H](C)[C@H](C)C2 | IIIB | p24 |  | 1 µg/mL
CC(=O)O[C@H]1[C@H](O)C2=C(CC[C@H]3C(C)(C)[C@@H](OS(=O)(=O)O)[C@H](OC(=O)CCCCCCCCCCCCCCCO)C[C@]23C)C2=CC[C@H]([C@H](C)CCC3(C(C)(C)O)CO3)[C@]21C |  | antigen |  | <6 µM
CCN(c1cccc2cccnc12)S(=O)(=O)c1ccc(F)cc1F | NL4-3 | p24 / ELISA | pseudotyped | 0.27 µM
CC1=CCC([C@@H](C)C2CC[C@@]3(C)C4=C(C=C5C=CC(=O)OC(C)(C)[C@@H]5[C@H](O)C4)CC[C@]23C)OC1=O | IIIB | p24 |  | >14.3 µg/mL
C=C(CC[C@@H](C)[C@H]1CC=C2C3=C([C@@H](O)[C@H](OC(C)=O)[C@@]21C)[C@@]1(C)C[C@@H](O)[C@H](OC(=O)CCC(=O)O)C(C)(C)[C@@H]1CC3)C(C)C |  | antigen |  | <6 µM
COc1cc2c(c(OC)c1OC)-c1c(cc3c(c1OC)OCO3)C(OC(=O)c1ccccc1)[C@@](C)(O)[C@@H](C)C2 | IIIB | p24 |  | 0.006 µg/mL
CN(c1ncc(Cc2cnc(N(C)C3CCN(Cc4ccccc4)CC3)nc2)cn1)C1CCN(Cc2ccccc2)CC1 | NL4-3 | luminescence |  | 6.63 µM
CC(C)CCC[C@@H](C)[C@H]1CCC2C3CCC4C[C@@H](O[C@H]5O[C@H](COS(=O)(=O)[O-])[C@@H](OS(=O)(=O)[O-])[C@H](OS(=O)(=O)[O-])[C@@H]5O[C@H]5O[C@H](COS(=O)(=O)[O-])[C@@H](OS(=O)(=O)[O-])[C@H](O[C@H]6O[C@H](COS(=O)(=O)[O-])[C@@H](OS(=O)(=O)[O-])[C@H](O[C@H]7O[C@H](COS(=O)(=O)[O-])[C@@H](OS(=O)(=O)[O-])[C@H](OS(=O)(=O)[O-])[C@@H]7OS(=O)(=O)[O-])C6OS(=O)(=O)[O-])[C@@H]5OS(=O)(=O)[O-])CC[C@]4(C)C3CC[C@@]21C | IIIB | p24 / ELISA / antigen |  | 7 µg/mL
CC1(C)Oc2ccc3cc(C(Br)Br)c(=O)oc3c2[C@@H](OC(=O)C23CCC(C)(C(=O)O2)C3(C)C)[C@H]1OC(=O)C12CCC(C)(C(=O)O1)C2(C)C | IIIB | p24 |  | 0.949 µM
COc1ccc(-c2c(C)nc3c(N4CC[C@@H](NS(=O)(=O)C(C)C)C4)cc(C)nn23)cc1OC |  | p24 |  | 0.3 µM
C[C@H](CCC(=O)NCC(=O)N[C@@H](Cc1cc(I)c(O)cc1I)C(=O)O)[C@H]1CC[C@H]2[C@@H]3[C@H](O)CC4C[C@H](O)CC[C@]4(C)[C@H]3C[C@H](O)[C@]12C | IIIB | syncytia |  | >100 µg/mL
C=C(C)OC(=O)N1c2cc(Cl)ccc2NC(=S)C1(C)C | MN: RS(HBY 097) | p24 |  | >50 µM
C[C@@H]1O[C@H]2O[C@H]3[C@@H](OC[C@@H](O)[C@@H]3O)OC(=O)[C@]34CCC(C)(C)C[C@@]3(C)C3=CC[C@@]5(C)[C@@](C)(CC[C@@H]6[C@](C)(CO)[C@@H](O[C@@H]7O[C@H](CO)[C@@H](O)[C@H](O)[C@H]7O[C@@H]7O[C@@H](C(=O)C[C@](C)(O)CC(=O)O[C@@H]1[C@@H](O[C@@H]1OC[C@@H](O)[C@H](O)[C@H]1O)[C@H]2O)[C@H](O)[C@H](O)[C@H]7O)[C@@H](O)C[C@@]65C)[C@]3(C)CC4 | IIIB | p24 |  | 24.1 µg/mL
O=P(O)(O)OP(=O)(O)OP(=O)(O)O | IIIB | RT activity |  | >100 µg/mL
Cc1cc(=O)oc2c3c(c(CBr)cc12)OC(C)(C)[C@H](OC(=O)C12CCC(C)(C(=O)O1)C2(C)C)[C@@H]3OC(=O)C12CCC(C)(C(=O)O1)C2(C)C | IIIB | p24 |  | 0.02462 µM
CCCc1cn([C@@H]2C[C@H](F)[C@@H](CO)O2)c(=O)[nH]c1=O | IIIB | p24 |  | 2.5 µM
Cc1cn([C@H]2C=C[C@@H](CO)O2)c(=O)[nH]c1=O | MN | p24 |  | 5.84 µM
COc1cc2c(c(OC)c1OC)-c1c(cc3c(c1OC)OCO3)C[C@@H](C)[C@@H](C)C2 | IIIB | p24 |  | 0.8 µg/mL
O=C(NCCCN1CCN(CCCNC(=O)Nc2ccc(Cl)cc2)CC1)Nc1ccc(Cl)cc1 | NL4-3 | luminescence |  | 3.54 µM
C[C@H](CCC(=O)N[C@@H](Cc1cc(I)c(O)cc1I)C(=O)O)[C@H]1CC[C@H]2[C@@H]3[C@H](O)CC4C[C@H](O)CC[C@]4(C)[C@H]3CC[C@]12C | IIIB | syncytia |  | <0.001 µg/mL
COc1c(Br)c2c(c(OC)c1OC)-c1c(c(Br)c3c(c1OC)OCO3)C[C@H](C)[C@@](C)(O)C2 | IIIB | p24 |  | >9 µg/mL
C[C@@]1(CO)CCC[C@@]2(C)C3CC[C@H]4CC3(CCC12)C[C@@]4(O)CO | IIIB | p24 |  | >100 µg/mL
COc1cc(C[C@@]2(O)C(=O)OC[C@@H]2Cc2ccc(OC)c(OC)c2)ccc1O | IIIB | p24 |  | <0.05 µM
CN(c1cccc2cccnc12)S(=O)(=O)c1ccc(F)cc1F | NL4-3 | p24 / ELISA | pseudotyped | 1.18 µM
N[C@@H](Cn1ccc(=O)c(O)c1)C(=O)O |  | p24 |  | ~120 µM
C[C@@]12CCC[C@@](C)(C=O)[C@H]1CC[C@@]13C[C@@H](CC[C@H]12)[C@H](C(=O)O)C3 | IIIB | p24 |  | >100 µg/mL

For reference, 7 entries again:

smiles | strain or isolate | read by | setting | value
CC1=CCC[C@H]2[C@](C)(Cc3cc(O)ccc3O)[C@@H](C)CC[C@]12C | IIIB | p24 |  | <0.1 µg/mL
N[C@@H](Cn1ccc(=O)c(O)c1)C(=O)O |  | p24 |  | ~120 µM
C[C@H](CCC(=O)NCC(=O)N[C@@H](Cc1cc(I)c(O)cc1I)C(=O)O)[C@H]1CC[C@H]2[C@@H]3[C@H](O)CC4C[C@H](O)CC[C@]4(C)[C@H]3C[C@H](O)[C@]12C | IIIB | syncytia |  | >100 µg/mL
CN(c1ncc(Cc2cnc(N(C)C3CCN(Cc4ccccc4)CC3)nc2)cn1)C1CCN(Cc2ccccc2)CC1 | NL4-3 | luminescence |  | 6.63 µM
CCCc1cn([C@@H]2C[C@H](F)[C@@H](CO)O2)c(=O)[nH]c1=O | IIIB | p24 |  | 2.5 µM
COc1ccc(-c2c(C)nc3c(N4CC[C@@H](NC(=O)c5ccccc5)C4)cc(C)nn23)cc1OC |  | p24 |  | <1 µM
NC(=O)NO |  | p24 |  | <200 µM